Experimental data taken from PMC8398805, “Chemical Characterization and Anti-HIV-1 Activity Assessment of Iridoids and Flavonols from Scrophularia trifoliata” (Molecules, 2021).

How the values were obtained:
[1] = molecular target: T1, HIV-1 RT-associated RNase H activity (Human immunodeficiency virus type 1 group M subtype B, UniProt P04585); assay: RNase H polymerase-independent cleavage assay; assay type: biochemical; conditions: compound concentration required to inhibit the HIV-1 RNase H activity by 50%
T1 construct: The 1:1 ration between the p66/p51 subunits was also verified; made in house; host or cells: E. coli strain M15 with the p6HRT-prot vector
Procedure: HIV-1 RT group M subtype B. Heterodimeric RT was expressed and purified essentially as previously described. Briefly, protein was expressed in E. coli strain M15 containing the p6HRT-prot vector, induced with 1.7 mM isopropyl β-D-1-thiogalactopyranoside for 4 h. Protein purification was carried out with a BioLogic LP system (Biorad), using a combination of immobilized metal affinity and ion exchange chromatography. […] Catalytic activities and protein concentrations were determined. […]
HIV RT-associated RNase H activity was measured as described (using the RNase H inhibitor RDS175911 as a control.) In a 100 µL reaction volume containing 50 mM Tris-HCl buffer with pH 7.8, 6 mM MgCl2, 1 mM dithiothreitol (DTT), 80 mM KCl, 0.25 µM hybrid RNA/DNA 5′-[…]-Fluorescin-3′ (HPLC, dry, QC: Mass Check) (available from Metabion (Planegg, Germany)) 5′-Dabcyl-[…]-3′ (HPLC, dry, QC: Mass Check), there were increasing concentrations of an inhibitor, whose dilution was made in water, and 20 ng of wt RT, according to a linear range of dose-response curve. The reaction mixture was incubated for 1 h at 37 °C, stopped by the addition of EDTA, and products were measured with a multilabel counter plate reader Victor 3 (Perkin Elmer model 1420-051 (Waltham, MA, USA)) equipped with filters for 490/528 nm (excitation/emission wavelength).

[2] = molecular target: T2, HIV-1 IN in the presence of LEDGF/p75 (Human immunodeficiency virus type 1 group M subtype B, UniProt P04585); assay: HTRF LEDGF-dependent integrase assay; assay type: biochemical; conditions: concentration required to inhibit IN catalytic activities, by 50%
T2 construct: Recombinant 6xHis tagged IN protein was expressed and purified as described previously; 6xHis; made in house; host or cells: Escherichia coli BL21 (DE3) for IN
Procedure: Recombinant 6xHis tagged IN protein was expressed and purified as described previously. Briefly, IN was expressed in Escherichia coli strain BL21 (DE3). Initial purification was done using a Ni-Sepharose column with an imidazole gradient from 20 mM to 500 mM concentration in a 50 mM HEPES (pH 7.5) buffer containing 1 M NaCl, 7.5 mM CHAPS, and 2 mM β-mercaptoethanol. This was followed by a heparin column purification with a NaCl gradient from 0 to 1 M concentrations. His-LEDGF was purified by loading precipitate of cell lysate onto a heparin column and was eluted with an increasing NaCl gradient (200 mM to 1 M) in a 50 mM HEPES (pH 7.5) buffer containing 7.5 mM CHAPS and 2 mM β-mercaptoethanol. Peak fractions were pooled and loaded onto a Superdex 200 GL column and eluted in a buffer containing 50 mM HEPES (pH 7.5), 200 mM NaCl, and 2 mM β-mercaptoethanol. […]
The HTRF assay allows measuring the inhibition of 3′-processing and strand-transfer IN reactions in the presence of recombinant LEDGF/p75 cellular cofactor [43]. […] After the incubation, 4 nM of Europium-Streptavidin were added to the reaction mixture, and the HTRF signal was recorded using a Perkin Elmer Victor 3 plate reader using a 314 nm for the excitation wavelength and 668 and 620 nm for the wavelength of the acceptor and the donor substrate emission, respectively.

Question: kaempferol-3-O-rutinoside [Compound 10] was tested. Which IC50 [1] did it give?
Answer: The IC50 was greater than 100000 nM.

Question: What about the IC50 [2] of the same substance?
Answer: The IC50 was 1760 ± 17 nM.
